Each molecule was assayed on HIV-1 NL4-3 K103N-Y181C strain (assay: Antiviral assay: inhibition of virus-induced cytotoxicity in MT4 cells). Conditions: Human immunodeficiency virus 1, NL43, MT4, 120 h, read-out: HIV-1 K103N-Y181C MT4 EC50.

Row | Structure (SMILES) | EC50
1 | Cc1cn([C@H]2C[C@H](N=[N+]=[N-])[C@@H](CO)O2)c(=O)[nH]c1=O [AZT, azidothymidine] | 0.0031 ± 0.0007 µM
2 | O=C(N/N=C/c1ccccc1O)c1cc(O)c(O)c(O)c1 [Compound 13, N’-(2-hydroxy-benzylidene)-3,4,5-trihydroxybenzoylhydrazone] | 12.4 ± 0.8 µM
3 | O=C(N/N=C/c1cc(O)c(O)cc1O)c1cc(O)c(O)c(O)c1 [Compound 21] | 8.7 ± 0.1 µM
4 | O=C1Nc2ccc(Cl)cc2[C@@](C#CC2CC2)(C(F)(F)F)O1 [EFV, efavirenz] | > 1.58 µM
5 | Cc1nnc(C(=O)NC(C)(C)c2nc(C(=O)NCc3ccc(F)cc3)c(O)c(=O)n2C)o1 [RAL, raltegravir] | 0.004 ± 0.001 µM

Same assay, conditions: read-out: HIV-1 K103N-Y181C MT4 EC50; HIV-1 NL4-3 K103N-Y181C, MT4 cells, MTT, 5 days post infection; mean and SD of three experiments

Row | Structure (SMILES) | EC50
6 | CCOC(=O)C(=O)CC(=O)/C=C/c1cccn1Cc1ccccc1Cl [RDS1759] | 4.6 ± 1.1 µM

Source: PMC7412550 (Viruses, 2020)
